Anti-infective test results gathered from many reports (values: NIAID ChemDB through PubChem).

All rows: target-level tests; species: Pneumocystis carinii; target: DHFR; read-out: IC50

Lines come from different laboratories, so protocols vary.

structure	result
CC1(C)N=C(N)N=C(N)N1c1cccc(OCCCOc2ccc(N)cc2)c1	0.17 µM
Nc1nc(N)c2nc(COc3ccccc3)cnc2n1	136 µM
O=C(O)c1cc(Sc2ccc(O)c(C(=O)O)c2)ccc1O	>100 µM
CN(Cc1cnc2nc(N)nc(N)c2n1)c1ccc(C(=O)N[C@@H](CCC(=O)N[C@@H](CCC(=O)N[C@@H](CCC(=O)N[C@@H](CCC(=O)O)C(=O)O)C(=O)O)C(=O)O)C(=O)O)cc1	0.000035 µM
O=S(=O)(O)c1cc(O)c(N=Nc2cccc3ccc(O)cc23)c2ccccc12	140 µM
CN(Cc1cnc2nc(N)nc(N)c2n1)c1c(Cl)cc(C(=O)N[C@@H](CCC(=O)O)C(=O)O)cc1Cl	0.000035 µM
COCCCOc1cc(Cc2cnc(N)nc2N)cc(-c2ccccc2)c1	12.2 µM
Nc1nc(N)c2[nH]c(-c3ccc4ccccc4c3)nc2n1	>113 µM
O=C(O)c1cc2ccccc2c(Cc2c(O)c(C(=O)O)cc3ccccc23)c1O	172 µM
COc1ccc(-c2nc3nc(N)nc(N)c3[nH]2)c2ccccc12	>13 µM
CC1(C)N=C(N)N=C(N)N1c1ccc(OCCOc2ccc(N)cc2)cc1	0.47 µM
CN(Cc1cnc2nc(N)nc(N)c2n1)c1ccc(C(=O)N[C@H](CCC(=O)O)C(=O)O)cc1I	0.000104 µM
Nc1nc(N)c2c(n1)CCC(CNc1cccc3ccccc13)C2	520 µM
Cc1cc(NC(=O)Oc2ccc3c(C)cc(=O)oc3c2)cc(Br)c1NC(=O)Oc1ccc2c(C)cc(=O)oc2c1	60 µM
Cc1c(CNc2ccc(Cl)c(C(=O)NC(CC(=O)O)C(=O)O)c2)ccc2nc(N)nc(N)c12	0.0054 µM
COc1ccc(OC)c(-c2nc3nc(N)nc(N)c3[nH]2)c1	>37.4 µM
CC1(C)N=C(N)N=C(N)N1c1ccc2ccccc2c1	0.72 µM
CN(CC1CCc2nc(N)nc(N)c2C1)c1cccc2ccccc12	100 µM
CCc1nc(N)nc(N)c1-c1ccc(N2CCCCC2)c([N+](=O)[O-])c1	5.05 µM
CCOC(=O)c1ccc(NC(=O)Nc2cc(Cl)ccc2Oc2ccccc2)cc1	>100 µM
CCCc1c(OC)cc(Cc2cnc(N)nc2N)cc1OC	20 µM
CN(Cc1cnc2nc(N)nc(N)c2n1)c1ccc(C(=O)N[C@@H](CCC(=O)O)C(=O)O)c2ccccc12	0.00019 µM
Nc1nc(N)c2c(ccc3ccc(Cl)cc32)n1	0.12 µM
C=COc1c(C=C)cc(Cc2cnc(N)nc2N)cc1C=C	3.4 µM
COc1cc(OC)c(-c2nc3nc(N)nc(N)c3[nH]2)c(OC)c1	>31.5 µM
COc1cc(OC)cc(N2C3CCC2CC(OCc2cnc(N)nc2N)C3)c1	0.016 µM
Nc1nc(N)c(-c2ccc(Cl)c(Cl)c2)c(/C=C/Cc2ccccc2)n1	0.5 µM
O=C(O)COCC(=O)NNC(=O)c1ccncc1	>100 µM

For reference, 2 entries again:

| structure | result |
|---|---|
| Cc1c(CNc2ccc(Cl)c(C(=O)NC(CC(=O)O)C(=O)O)c2)ccc2nc(N)nc(N)c12 | 0.0054 µM |
| CCCc1c(OC)cc(Cc2cnc(N)nc2N)cc1OC | 20 µM |

ICn: concentration for n% inhibition.